# Reference: publication PMC7451656, “In vitro and in vivo growth inhibitory activities of cryptolepine hydrate against several Babesia species and Theileria equi” (PLoS Neglected Tropical Diseases, 2020)
# Legend:
# B. caballi = experiment: Growth inhibitory fluorescence assay in vitro, B. caballi; format: cell-based, Babesia caballi
# Procedure: (§1) Texas strain of B. bovis and Argentina strain of B. bigemina were grown using bovine red blood cells (RBCs, collected from cattle farm of Obihiro University of Agriculture and Veterinary Medicine and stored at 4°C) in medium 199 (M199; Sigma-Aldrich, Tokyo, Japan) supplemented with 40% bovine serum, while RPMI 1640 medium (Sigma-Aldrich, Tokyo, Japan) was used for B. divergens (German strain) cultivation. The United States Department of Agriculture (USDA) strain of T. equi was grown in equine RBCs (collected from horse farm of Obihiro University of Agriculture and Veterinary Medicine and stored at 4°C) in M199 supplemented with 40% equine serum, and hypoxanthine (MP Biomedicals, Santa Ana, CA, USA) at a final concentration of 13.6 μg/ml was used as a vital supplement, while GIT medium was used for B. caballi (USDA strain) cultivation. Sixty μg/ml of streptomycin, 0.15 μg/ml of amphotericin B, and 60 U/ml of penicillin G (Sigma-Aldrich, Tokyo, Japan) were added to all media to prevent fungal and bacterial contamination. […]
# (§2) The inhibition assay was conducted according to the previously described protocol. […] Afterward, the fluorescence was measured using a fluorescence spectrophotometer (Fluoroskan Ascent, Thermo Fisher Scientific, USA) at 485 nm excitation and 518 nm emission wavelengths. The relative fluorescence value was set to percentages after subtracting the mean values of the negative control. […]
# (§3) The IC50 values of CRY, DA, CF, and AQ were determined using the nonlinear regression curve fit in GraphPad Prism (GraphPad Software Inc., San Diego, CA, USA). Combination index (CI) values for the drug combination were calculated using CompuSyn software, and the degree of synergism was determined as the weighted average of CI values using a formula [(1 x IC50) + (2 x IC75) + (3 x IC90) + (4 x IC95)]/10 [30]. The differences in parasitemia and hematology profiles in the B. microti–infected mice were analyzed using an independent Student’s t-test and one-way ANOVA test using GraphPad Prism version 5.0 for Windows (GraphPad Software Inc., San Diego, CA, USA). […]
# B. bovis = experiment: Growth inhibitory fluorescence assay in vitro, B. bovis; format: cell-based, Babesia bovis
# Procedure: as §1, §2, §3
# T. equi = experiment: Growth inhibitory fluorescence assay in vitro, T. equi; format: cell-based, Theileria equi
# Procedure: as §1, §2, §3
# B. bigemina = experiment: Growth inhibitory fluorescence assay in vitro, B. bigemina; format: cell-based, Babesia bigemina
# Procedure: as §1, §2, §3
# B. divergens = experiment: Growth inhibitory fluorescence assay in vitro, B. divergens; format: cell-based, Babesia divergens
# Procedure: as §1, §2, §3
smiles,measurement,setting,value
"CC(=O)NCC(=O)O.CC(=O)NCC(=O)O.N=C(N)c1ccc(N=NNc2ccc(C(=N)N)cc2)cc1 [DA, diminazene aceturate]",Selective index HFF,B. caballi; EC50 HFF / IC50 B. caballi,˃ 5000
same,Selective index MDBK,B. caballi; EC50 MDBK / IC50 B. caballi,˃ 5000
same,Selective index NIH/3T3,B. caballi; EC50 NIH/3T3 / IC50 B. caballi,˃ 5000
same,Selective index HFF,B. bovis; EC50 HFF / IC50 B. bovis,˃ 285.7
same,Selective index MDBK,B. bovis; EC50 MDBK / IC50 B. bovis,˃ 285.7
same,Selective index NIH/3T3,B. bovis; EC50 NIH/3T3 / IC50 B. bovis,˃ 285.7
same,Selective index HFF,T. equi; EC50 HFF / IC50 T. equi,˃ 140.8
same,Selective index MDBK,T. equi; EC50 MDBK / IC50 T. equi,˃ 140.8
same,Selective index NIH/3T3,T. equi; EC50 NIH/3T3 / IC50 T. equi,˃ 140.8
same,Selective index HFF,B. bigemina; EC50 HFF / IC50 B. bigemina,˃ 147.1
same,Selective index MDBK,B. bigemina; EC50 MDBK / IC50 B. bigemina,˃ 147.1
same,Selective index NIH/3T3,B. bigemina; EC50 NIH/3T3 / IC50 B. bigemina,˃ 147.1
same,Selective index HFF,B. divergens; EC50 HFF / IC50 B. divergens,˃ 232.5
same,Selective index MDBK,B. divergens; EC50 MDBK / IC50 B. divergens,˃ 232.5
same,Selective index NIH/3T3,B. divergens; EC50 NIH/3T3 / IC50 B. divergens,˃ 232.5
